Anti-infective test results gathered from many reports (values: NIAID ChemDB through PubChem).

Common to all: whole-cell or culture tests; organism: HIV-2; measure: EC50

Rows are shuffled and stem from different studies.

compound	strain or isolate	cell line	result
Nc1nc2c(ncn2C2CC=C[C@H]2CO)c(=O)[nH]1	ROD	CEM	>100 µM
O=c1[nH]cnc2c1ncn2[C@H]1CC[C@@H](CO)O1	-	MT-4	16 µg/mL
Cc1cn([C@@H]2C[C@H](CO)[C@H](O)C2)c(=O)[nH]c1=O	-	CEM + CEM/0	>250 µM
Cc1cn([C@H]2C[C@H](N=[N+]=[N-])[C@@H](CO)O2)c(=O)[nH]c1=O	ROD	PBMC	0.003 µM
CO[P@](=O)(c1cc(C)cc(/C=C/C#N)c1)c1c(C(N)=O)[nH]c2ccc(Cl)cc12	ROD	H9	>1.25 µM
COc1cccc2c1OP(=O)(OC[C@H]1O[C@@H](n3cc(C)c(=O)[nH]c3=O)C[C@@H]1N=[N+]=[N-])OC2	-	CEM + CEM/O	0.009 µM
Cc1cccc2c1OP(=O)(OC[C@H]1C[C@H](n3cc(C)c(=O)[nH]c3=O)C[C@@H]1O)OC2	-	CEM + CEM/0	23.3 µM
Cc1cn([C@H]2C[C@H](N=[N+]=[N-])[C@@H](COP3(=O)OCc4cc([N+](=O)[O-])ccc4O3)O2)c(=O)[nH]c1=O	-	CEM + CEM/O	0.02 µM
N=c1ncn([C@H]2CC[C@@H](CO)O2)c2nc[nH]c12	-	MT-4	321 µM
Cc1cn(Cc2nc3n(n2)CCCCCC3)c(=O)[nH]c1=O	ROD	MT-4	>65 µg/mL
Cc1cn([C@H]2C[C@H](CO)[C@@H](O)C2)c(=O)[nH]c1=O	-	CEM + CEM/0	2.67 µM
Cc1cn([C@H]2C[C@H](N=[N+]=[N-])[C@@H](CSCCC(=O)O)O2)c(=O)[nH]c1=O	ROD	MT-4	0.29 µg/mL
NC1=CS(=O)(=O)OC12C1CC3CC(C1)CC2C3	-	-	>200 µg/mL
Cc1cn([C@@H]2O[C@H](CO[Si](C)(C)C(C)(C)C)C3(OS(=O)(=O)C=C3N)[C@H]2O[Si](C)(C)C(C)(C)C)c(=O)n(C)c1=O	ROD	MT-4	>200 µM
Cc1cccc2c1OP(=O)(OC[C@@H]1C=C[C@H](n3cc(C)c(=O)[nH]c3=O)O1)OC2	-	CEM	0.05 µM
Cc1cn([C@@H]2O[C@H](CO[Si](C)(C)C(C)(C)C)C3(OC(=O)N=C3N)[C@H]2O[Si](C)(C)C(C)(C)C)c(=O)[nH]c1=O	ROD	MT-4	>35 µM
CCOP(=O)(/C=C\n1cnc2c(=O)[nH]c(NC(C)=O)nc21)OCC	ROD	CEM + CEM-SS	>200 µM
Cc1cc(C=O)cc2c1OP(=O)(OC[C@@H]1C=C[C@H](n3cc(C)c(=O)[nH]c3=O)O1)OC2	-	CEM + CEM TK-	11.8 µM
Nc1ncnc2c1ncn2[C@H]1C=C[C@@H](CO)O1	ROD	C8166	32 µM
Cc1cn([C@H]2C=C[C@@H](COP3(=O)OCc4c(Cl)cccc4O3)O2)c(=O)[nH]c1=O	-	CEM + CEM TK-	0.8 µM
Cc1cn([C@H]2C=C[C@@H](CO)O2)c(=O)[nH]c1=O	-	CEM	0.41 µM
Nc1nc(NC2CC2)c2ncn(C3C=C[C@@H](CO)C3)c2n1	ROD	CEM	5.2 µM
CC1(C)S[C@H]([C@H](NC(=O)Cc2ccccc2)C(=O)NCc2ccccc2)N[C@H]1C(=O)NCCNC(=O)[C@@H]1N[C@@H]([C@H](NC(=O)Cc2ccccc2)C(=O)NCc2ccccc2)SC1(C)C	ROD	CEM	0.26 µM
Cc1cccc2c1O[P@](=O)(OC[C@@H]1C=C[C@H](n3cc(C)c(=O)[nH]c3=O)O1)OC2	-	CEM + CEM TK-	0.048 µM
CCCC(=O)O[C@H]1CN2CC[C@H](O)[C@@H]2[C@@H](O)[C@@H]1O	ROD	H9	<4 µM
Nc1nc(=O)n([C@H]2C=C[C@@H](CO)O2)cc1F	-	PBMC	<0.07 µM
Cc1cn([C@H]2C[C@H](N=[N+]=[N-])[C@@H](CO)O2)c(=O)[nH]c1=O	ROD	CEM/TK-	>1000 µM
Cc1cn([C@H]2C=C[C@@H](COP3(=O)Oc4ccccc4C(CCl)O3)O2)c(=O)[nH]c1=O	-	CEM + CEM TK-	22 µM
Cc1cn([C@H]2C[C@H](N=[N+]=[N-])[C@@H](CO)O2)c(=O)[nH]c1=O	ROD	MT-4	0.022 µM
Cc1cn([C@H]2C=C[C@@H](COP3(=O)OCc4cc(C(C)(C)C)cc(C(C)(C)C)c4O3)O2)c(=O)[nH]c1=O	-	CEM	1.2 µM
Cc1ccc2c(c1)COP(=O)(OC[C@H]1O[C@@H](n3cc(C)c(=O)[nH]c3=O)C[C@@H]1N=[N+]=[N-])O2	-	CEM + CEM/O	0.006 µM
COC(=O)[C@H](C)NP(=O)(OC[C@@H]1C=C[C@H](n2cnc3c(N)ncnc32)O1)Oc1ccccc1	ROD	MOLT-4/C8 + MOLT-4	0.04 µM
CCOP(=O)(/C=C/n1cnc2c(=O)[nH]c(NC(C)=O)nc21)OCC	ROD	CEM + CEM-SS	>200 µM
Cc1cn([C@H]2C=C[C@@H](COP3(=O)OCc4c(ccc5ccccc45)O3)O2)c(=O)[nH]c1=O	-	CEM + CEM/O	0.17 µM
CCCCN(CCCC)P(=O)(OCCSC(=O)C(C)(C)C)OC[C@H]1O[C@@H](n2cc(C)c(=O)[nH]c2=O)C[C@@H]1N=[N+]=[N-]	ROD	CEM + CEM TK-	>10 µM
Cc1cn([C@H]2C[C@H](N=[N+]=[N-])[C@@H](COP3(=O)OCc4cc(Cl)ccc4O3)O2)c(=O)[nH]c1=O	-	CEM + CEM/O	0.006 µM
Cc1cn([C@H]2C=C[C@@H](COP3(=O)Oc4ccccc4C(C(Cl)(Cl)Cl)O3)O2)c(=O)[nH]c1=O	-	CEM + CEM/O	0.6 µM
Cc1cccc2c1OP(=O)(OC[C@H]1C[C@@H](n3cc(C)c(=O)[nH]c3=O)C[C@@H]1O)OC2	-	CEM + CEM/0	0.7 µM
CCOP(=O)(/C=C/n1cnc2c(N)ncnc21)OCC	ROD	CEM + CEM-SS	>200 µM
Cc1cn([C@H]2C=C[C@@H](COP3(=O)Oc4ccccc4C(C(Cl)Cl)O3)O2)c(=O)[nH]c1=O	-	CEM + CEM/O	0.55 µM

The last 2 rows once more:

CCOP(=O)(/C=C/n1cnc2c(N)ncnc21)OCC ; strain or isolate: ROD ; cell line: CEM + CEM-SS ; result: >200 µM
Cc1cn([C@H]2C=C[C@@H](COP3(=O)Oc4ccccc4C(C(Cl)Cl)O3)O2)c(=O)[nH]c1=O ; cell line: CEM + CEM/O ; result: 0.55 µM

Blank or dashed fields: not listed here. ECn: concentration that inhibits the pathogen or its effect by n%.